PubChem BioAssay AID624099, ICCB-Longwood, 2012
The whole screen tested about 21,000 reagents; below is a part drawn at random. 497 of all reagents (2.4%) were called active. 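Higher z means weaker E2 silencing; only reporter increases were scored, and knock-downs that hurt cell survival may mask genuine repressor factors.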 A number with no mark means an inactive call.

Aim: 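Human genes that papillomavirus E2 requires to repress the HPV18 LCR promoter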 (primary screen)
System: human C33A cervical carcinoma cells (HPV-negative) stably expressing BPV1 E2 and an HPV18 LCR luciferase reporter
Reagents: siRNA pool against human genes, 40 nM
Duration: 72 h
Measured: 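HPV18 LCR reporter light per well, converted to plate-wise z-scores that exclude control wells, and averaged over triplicate plates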
Direction: mean z-score and z-score: higher = stronger reporter signal, weaker E2 silencing
Active means: 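Hit if mean z-score reaches 2 and two or more of three replicate z-scores also reach 2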

{"gene symbol": "NUCLEOLIN", "mean z-score": -1.86, "z-score, replicate A": -1.62, "z-score, replicate B": -1.82, "z-score, replicate C": -2.13}
{"gene symbol": "ADM5", "mean z-score": 0.26, "z-score, replicate A": 0.24, "z-score, replicate B": 0.35, "z-score, replicate C": 0.18}
{"gene symbol": "DCLK2", "mean z-score": -0.39, "z-score, replicate A": 0.23, "z-score, replicate B": -0.57, "z-score, replicate C": -0.84}
{"gene symbol": "TENT5A", "mean z-score": -1.4, "z-score, replicate A": -1.77, "z-score, replicate B": -1.47, "z-score, replicate C": -0.95}
{"gene symbol": "LOC151256 (retired record)", "mean z-score": -0.35, "z-score, replicate A": -0.47, "z-score, replicate B": -0.38, "z-score, replicate C": -0.19}
{"gene symbol": "PXK", "mean z-score": 0.53, "z-score, replicate A": 0.28, "z-score, replicate B": 0.79, "z-score, replicate C": 0.53}
{"gene symbol": "MELK", "mean z-score": 1.52, "z-score, replicate A": 1.58, "z-score, replicate B": 1.58, "z-score, replicate C": 1.4}
{"gene symbol": "ARHGAP12", "mean z-score": -0.46, "z-score, replicate A": -0.27, "z-score, replicate B": -0.52, "z-score, replicate C": -0.61}
{"gene symbol": "LPAR1", "mean z-score": 0.12, "z-score, replicate A": 0.19, "z-score, replicate B": 0.25, "z-score, replicate C": -0.09}
{"gene symbol": "PAGE5", "mean z-score": -1.39, "z-score, replicate A": -1.65, "z-score, replicate B": -1.58, "z-score, replicate C": -0.93}
{"gene symbol": "SLC24A4", "mean z-score": 0.25, "z-score, replicate A": 0.63, "z-score, replicate B": 0.19, "z-score, replicate C": -0.08}
{"gene symbol": "FOXRED1", "mean z-score": 0.72, "z-score, replicate A": 0.94, "z-score, replicate B": 0.73, "z-score, replicate C": 0.48}
{"gene symbol": "PDHA2", "mean z-score": 0.35, "z-score, replicate A": 0.07, "z-score, replicate B": 0.48, "z-score, replicate C": 0.5}
{"gene symbol": "PEX13", "mean z-score": 0.31, "z-score, replicate A": 0.53, "z-score, replicate B": 0.42, "z-score, replicate C": -0.03}
{"gene symbol": "PHKG2", "mean z-score": 1.11, "z-score, replicate A": 1.02, "z-score, replicate B": 1.01, "z-score, replicate C": 1.3}
{"gene symbol": "SPATA33", "mean z-score": -1.23, "z-score, replicate A": -1.02, "z-score, replicate B": -1.33, "z-score, replicate C": -1.34}
{"gene symbol": "FAM120C", "mean z-score": -0.31, "z-score, replicate A": -0.48, "z-score, replicate B": -0.2, "z-score, replicate C": -0.25}
{"gene symbol": "ANO8", "mean z-score": -0.85, "z-score, replicate A": -0.94, "z-score, replicate B": -1.1, "z-score, replicate C": -0.49}
{"gene symbol": "BBS5", "mean z-score": -0.73, "z-score, replicate A": -0.47, "z-score, replicate B": -0.76, "z-score, replicate C": -0.97}
{"gene symbol": "CEP135", "mean z-score": 1.1, "z-score, replicate A": 0.68, "z-score, replicate B": 1.48, "z-score, replicate C": 1.14}
{"gene symbol": "LAMB2", "mean z-score": -0.13, "z-score, replicate A": -0.23, "z-score, replicate B": -0.17, "z-score, replicate C": 0}
